A mixed list of measured activities; the numbers were collected in NIAID ChemDB.

Shared fields: growth or infection tests; agent: HIV-1

ECn: concentration that inhibits the pathogen or its effect by n%.

compound | cells | strain | read by | mutations | measure | value
CCn1nccc1-c1ccc(S(=O)(=O)N(CC(C)C)C[C@@H](O)[C@H](Cc2ccccc2)NC(=O)COc2c(C)cccc2C)cc1 | MT-4 | LAI | cytopathic effect / MTT |  | EC50 | 6.31 µM
Cc1cn([C@H]2C=C[C@@H](CO)O2)c(=O)[nH]c1=O | MT-4 | RD 05-RT-41L 215D Recombinant | cytopathic effect / MTT |  | EC50 | 0.23 µM
CN1CCN(CCSc2nccc(-c3cccs3)n2)CC1 | PBMC | LAV-1 | RT activity |  | EC50 | 16.9 µM
Cc1occc1C(=S)Nc1ccc(Cl)c(SCC=C(Cl)Cl)c1 | CEM | HEPT-resistant (RT Y188H) | syncytia | RT-Y188H | EC50 | 2 µg/mL
CC(=O)N1CCc2cc(S(=O)(=O)N(CC3CCCC3)C[C@@H](O)[C@H](Cc3ccccc3)NC(=O)O[C@H]3CCOC3)ccc21 | CEM | IIIB | p24 |  | EC50 | <0.101 µM
CN(C)CCSc1cccc(-c2ccnc(SCCN(C)C)n2)c1 | PBMC | LAV-1 | RT activity |  | EC50 | 9.3 µM
COc1ccc(S(=O)(=O)N(CC(C)C)C[C@@H](O)CCN(CC2CCCC2)S(=O)(=O)CC2CCOC2)cc1 | CEM | IIIB | p24 |  | EC50 | <1 µM
Cc1cn([C@H]2CO[C@@H](COP(=O)(N[C@@H](C)C(=O)OCc3ccccc3)Oc3cccc4ccccc34)O2)c(=O)[nH]c1=O | PBMC | LAI | RT activity | RT-M184V | EC50 | 2.2 µM
CC(C)CN(C[C@@H](O)[C@H](Cc1ccccc1)NC(=O)O[C@H]1CO[C@H]2OCC[C@H]21)S(=O)(=O)c1ccc(-c2csc(N)n2)cc1 | MT-4 |  | cytopathic effect / MTT | PR-L010F M046I M071V I084V | EC50 | 0.273 µM
C=C(COC)COC(=O)N[C@@H](Cc1ccccc1)[C@H](O)CN(CC1CCCC1)S(=O)(=O)c1ccc(OC)cc1 | CEM | IIIB | p24 |  | EC50 | <1.001 µM
C=C(Cl)COc1cc(NC(=S)c2ccoc2C)ccc1C | CEM | TIBO R82150-resistant (RT L100I) | syncytia | RT-L100I | EC50 | 0.95 µg/mL
Cc1cn([C@H]2CO[C@@H](CO[P@@]3(=O)OCC[C@@H](c4ccccc4)O3)O2)c(=O)[nH]c1=O | PBMC | LAI | RT activity | RT-M184V | EC50 | 0.48 µM
Cc1[nH]cnc1CS(=O)(=O)N(CC1CCCC1)C[C@@H](O)CN(CCc1ccccc1)C(=O)c1ccccc1 | CEM | IIIB | p24 |  | EC50 | <1 µM
COC(=O)[C@H](NP(=O)(OC[C@@H]1OC[C@H](n2cc(C)c(=O)[nH]c2=O)O1)Oc1ccccc1)C(C)C | PBMC | LAI | RT activity | RT-M184V | EC90 | 82.8 µM
CC(C)CN(CCC(O)Cc1ccccc1C(=O)NC(C)(C)C)S(=O)(=O)c1ccccc1 | CEM | IIIB | p24 |  | EC90 | 1 µM
CN(C)Cc1ccc(-c2cccc(-c3ccc(CN(C)C)cc3)n2)cc1 | PBMC | LAV-1 | RT activity |  | EC50 | 1.6 µM
COC(=O)[C@H](C)NP(=O)(OC[C@@H]1OC[C@H](n2cc(C)c(=O)[nH]c2=O)O1)Oc1ccc(C)cc1 | PBMC | LAI | RT activity | RT-M184V | EC90 | 3.4 µM
NC(=O)C[C@H](NC(=O)c1ccc2ccccc2n1)C(=O)N[C@@H](Cc1ccccc1)[C@H](O)CN(Cc1ccccc1)S(=O)(=O)c1ccc(-c2ccon2)s1 | CEM | IIIB | p24 |  | EC50 | <0.101 µM
Cc1occc1C(=O)Nc1ccc(Cl)c(SCC=C(Cl)Cl)c1 | CEM | Pyridone-resistant (RT Y181C) | syncytia | RT-Y181C | EC50 | 2 µg/mL
NC(=O)C[C@H](NC(=O)c1ccc2ccccc2n1)C(=O)N[C@@H](Cc1ccccc1)[C@H](O)CN(Cc1ccccc1)S(=O)(=O)c1cccc2nonc12 | CEM | IIIB | p24 |  | EC50 | <0.101 µM
CC(C)CN(C[C@@H](O)[C@H](Cc1ccccc1)NC(=O)O[C@H]1CO[C@H]2OCC[C@H]21)S(=O)(=O)c1ccc(-c2cnccn2)cc1 | MT-4 | LAI | cytopathic effect / MTT |  | EC50 | 0.008 µM
COc1ccc(S(=O)(=O)N(CC(C)C)C[C@@H](O)CCc2ccccc2C(=O)NC(C)(C)C)cc1 | CEM | IIIB | p24 |  | EC90 | 1 µM
NC(=O)C[C@H](NC(=O)c1ccc2ccccc2n1)C(=O)N[C@@H](Cc1ccccc1)[C@H](O)CN(Cc1ccccc1)S(=O)(=O)c1cccc(C(=O)O)c1 | CEM | IIIB | p24 |  | EC50 | <10 µM
Cc1cccc(C)c1OCC(=O)N[C@@H](Cc1ccccc1)[C@H](O)CN(CC(C)C)S(=O)(=O)c1ccc(-c2ccnn2C(C)(C)C)cc1 | MT-4 | LAI | cytopathic effect / MTT |  | EC50 | 6.31 µM
C/C(Cl)=C/COc1cc(NC(=S)c2ccoc2C)ccc1Cl | CEM | Nevirapine-resistant isolate (RT V106A) | syncytia | RT-V106A | EC50 | 0.012 µg/mL
COC(=O)[C@H](C)NP(=O)(OC[C@@H]1OC[C@H](n2cc(C)c(=O)[nH]c2=O)O1)Oc1ccc(C#N)cc1 | PBMC | LAI | RT activity | RT-M184V | EC90 | 1.6 µM
Cc1nc(-c2ccc(S(=O)(=O)N(CC(C)C)C[C@@H](O)[C@H](Cc3ccccc3)NC(=O)OCc3cncs3)cc2)co1 | MT-4 | LAI | cytopathic effect / MTT |  | EC50 | 0.501 µM
COC(=O)[C@H](C)NP(=O)(OC[C@@H]1OC[C@H](n2cc(C)c(=O)[nH]c2=O)O1)Oc1ccccc1Cl | PBMC | LAI | RT activity | RT-M184V | EC50 | 0.53 µM
CN(C)CCNc1nc(-c2ccoc2)cc(-c2cc3ccccc3s2)n1 | PBMC | LAV-1 | RT activity |  | EC50 | 1.3 µM
CC(C)CN(C[C@@H](O)[C@H](Cc1ccccc1)NC(=O)O[C@H]1CO[C@H]2OCC[C@H]21)S(=O)(=O)c1ccc(-c2coc(COCc3ccccc3)n2)cc1 | MT-4 | LAI | cytopathic effect / MTT |  | EC50 | 0.004 µM
CC(C)CN(C(=O)C(=O)C(=O)C(Cc1ccccc1)NC(=O)OC(C)(C)C)S(=O)(=O)c1ccccc1 | CEM | IIIB | p24 |  | EC90 | 1 µM
Cc1cn([C@H]2CO[C@@H](CO[P@@]3(=O)OCC[C@@H](c4cccc(Cl)c4)O3)O2)c(=O)[nH]c1=O | PBMC | LAI | RT activity | RT-M184V | EC90 | 55.9 µM
Nc1ccn([C@H]2CC[C@@H](CO)O2)c(=O)n1 |  | NL4-3 | β-galactosidase | V182I | EC50 | 0.686 µM
COc1ccc(NC(=S)c2ccoc2C)cc1OCC=C(Cl)Cl | CEM | TSAO-m3T-resistant (RT E138K) | syncytia | RT-E138K | EC50 | 0.05 µg/mL
Cc1cn([C@H]2CO[C@@H](COP(=O)(N[C@@H](C)C(=O)OCc3ccccc3)Oc3ccccc3)O2)c(=O)[nH]c1=O | PBMC | LAI | RT activity | RT-M184V | EC90 | 4.6 µM
CCOC(=O)N[C@@H](Cc1ccccc1)[C@H](O)CN(CC1CCCC1)S(=O)(=O)c1ccc(F)cc1 | CEM | IIIB | p24 |  | EC50 | <0.101 µM
COC(=O)[C@@H](Cc1ccccc1)NP(=O)(OC[C@@H]1OC[C@H](n2cc(C)c(=O)[nH]c2=O)O1)Oc1ccccc1 | PBMC | LAI | RT activity | RT-M184V | EC50 | 13.7 µM
CC(=O)Nc1nc(-c2ccc(S(=O)(=O)N(CC(C)C)C[C@@H](O)[C@H](Cc3ccccc3)NC(=O)O[C@H]3CO[C@H]4OCC[C@H]43)cc2)cs1 | MT-4 | LAI | cytopathic effect / MTT |  | EC50 | 0.005 µM
CC(C)CN(C[C@@H](O)[C@H](Cc1ccccc1)NC(=O)OCc1ccccn1)S(=O)(=O)c1ccc(F)c(F)c1 | CEM | IIIB | p24 |  | EC50 | <1.001 µM
COc1ccc(S(=O)(=O)N(CC(C)C)C[C@@H](O)CCN(CC2CCCC2)S(=O)(=O)CC(C)(C)C)cc1 | CEM | IIIB | p24 |  | EC50 | <1 µM
CC(C)CN(C[C@@H](O)[C@H](Cc1ccccc1)NC(=O)O[C@H]1CO[C@H]2OCC[C@H]21)S(=O)(=O)c1ccc(-c2coc(-c3ccc4c(c3)OCO4)n2)cc1 | MT-4 | LAI | cytopathic effect / MTT |  | EC50 | 0.016 µM

A second listing of 3 rows from above:

compound	cells	strain	read by	mutations	measure	value
Cc1cn([C@H]2CO[C@@H](COP(=O)(N[C@@H](C)C(=O)OCc3ccccc3)Oc3cccc4ccccc34)O2)c(=O)[nH]c1=O	PBMC	LAI	RT activity	RT-M184V	EC50	2.2 µM
Cc1cn([C@H]2C=C[C@@H](CO)O2)c(=O)[nH]c1=O	MT-4	RD 05-RT-41L 215D Recombinant	cytopathic effect / MTT		EC50	0.23 µM
CC(=O)Nc1nc(-c2ccc(S(=O)(=O)N(CC(C)C)C[C@@H](O)[C@H](Cc3ccccc3)NC(=O)O[C@H]3CO[C@H]4OCC[C@H]43)cc2)cs1	MT-4	LAI	cytopathic effect / MTT		EC50	0.005 µM

An empty or dashed field is not shown. Conditions beyond the fields shown may differ between rows.